Reference: US20250066456A1 (NOVAVAX, published 2025)
Where two headings read alike, the source gives them in different places.

Experiments:
[1] = biological target: XBB CoV S glycoprotein (recombinant); assay: ELISA on coated rS
[2] = biological target: Mu CoV S glycoprotein (recombinant); assay: ELISA, plate coated with rS, serial dilution of the mAb, anti-mouse HRP, A450
[3] = biological target: XBB CoV S glycoprotein (recombinant); assay: hACE2 receptor inhibition ELISA on coated rS; competitor hACE2-His
[4] = biological target: Mu CoV S glycoprotein (recombinant); assay: ELISA, plate coated with rS, serial dilution of the mAb, anti-mouse HRP, A450; remark: listed apart in the source
[5] = biological target: Mu CoV S glycoprotein (recombinant); assay: hACE2 receptor inhibition ELISA on coated rS; competitor hACE2-His
[6] = biological target: Mu CoV S glycoprotein (recombinant); assay: ELISA on coated rS
[7] = biological target: XBB CoV S glycoprotein (recombinant); assay: hACE2 receptor inhibition ELISA on coated rS; competitor hACE2-His; remark: listed apart in the source
[8] = biological target: XBB CoV S glycoprotein (recombinant); assay: ELISA on coated rS; remark: listed apart in the source

B1: 322.3 (antibody, V domains shown)
VH: RVQLQQSGPELVKPGASVTISCKASGYIFTSDYIHWVKQRPGQGPEWIGWIYPGNINTKYNEKFKGKATLTADKSSSTAYMQLSSLTSEDSAVYFCARDDGNLYYYAMDYWGQGTSVTVSS
VL: NIVLTQSPASLAVSLGQRATISCRASESVDSYGSSFMHWYQQKPGQPPKLLIYLASNLESGVPARFSGSGSRTDFTLTIDPVEADDAATYYCQQNNEDPRTFGGGTKLEIK
Work on B1 yielded an EC50 [1] of 0.111 µg/mL, an EC50 [2] of 0.151 µg/mL and an IC50 [3] of 0.13 µg/mL.

B2: 425.6 (antibody, V domains shown)
VH: VQLKQSGPSLVQPSQSLSITCTVSGFSLTSYGIHWVRQSPGKGLEWLGVIWRGGSTDYNAAFMSRLTITKDNSKSQVFFKMNSLQADDTAIYYCATHTEGDDVDYWGQGTSVTVSS
VL: QIVLTQSPAIMSVSPGEKVTMTCSASSTMSFMYWYQQKPGSSPRLLIYDTSNLASGVPVRFSGSGSGTSYSLTISRVEAEDAATYYCQQWNTYPLTFGAGTKLELKR
In the case of B2, the EC50 [4] is reported as 0.019 µg/mL and the IC50 [3] is reported as greater than 3 µg/mL.

B3: 35.13 (antibody, V domains shown)
VH: QVQLQQSGAELGKPGASVKLSCRASGYTFTRYYIYWVKQRPGQGLEWIGEINPSNGDTHFNEKFKTKATLTVDKSSSSAHIHLTSLTSEDSAVYYCSIHAYSFDFWGQGTTLTVSS
VL: EIQMTQSPSSMSASLGDRITITCQATQDIVKNLNWYQQKPGKPPSFLIYHATELAKGVPSRFSGSGSGSDYSLTISNLESEDFADYYCLQFYDFPFTFGAGTKLELKR
Binder B3 has an IC50 [5] of 0.982 µg/mL, an EC50 [6] of 0.179 µg/mL and an IC50 [3] greater than 3 µg/mL.

B4: 199.9 (antibody, V domains shown)
VH: LVQLQQPGAELVKPGASVKLSCKASGYTFTSYFMYWVRQRPGQGLEWIGEINPSNGGNDFNEKFKSKATLTVDKSSSTAYMQLSSLTSEDSAVYYCTRSGDYGYDGFAYWGQGTLVTVSA
VL: NIVLTQSPASLAVSLGQRATISCRASESVDTYGNSFMHWYQQKPGQPPKLLIYLASNLESGVPARFSGSGSRTDFTLTIDPVEADDAATYYCQQNNEDPLTFGAGTKLELK
Binder B4 has an IC50 [7] of 3.78 µg/mL and an EC50 [8] of 3.87 µg/mL.

B5: 239.12 (antibody, V domains shown)
VH: EVKLEESGPVLVKPSQSLSLTCTVTGYSITSDYAWNWIRQFPGNKLEWMGYISNSAGTSYNPSLKSRISITRDTSKNQFFLQLNSVTTEDTATYYCASGGWSSYYAMDYWGQGTSVTVSS
VL: DIQMTQSPASLSASVGETVTITCGASENIYGALNWYQRKQGKSPQLLIYGATNLADGMSSRFSGSGSGRQYSLKISSLHPDDVATYYCQNVLSTPYTFGGGTKLEIKR
Work on B5 yielded an IC50 [3] greater than 3 µg/mL.
